Compound potency records, mixed from different reports. Data source: NIAID ChemDB in PubChem.

Common to all: toxicity to cultured cells; cells: HepG2; measure: CC50

An empty or dashed field is not shown. Lines come from different laboratories, so protocols vary. CCn: concentration that lowers growth or viability of the cells by n%.

smiles | setting | read by | value
CCN(CC)CCOc1ccccc1C(=O)CCc1ccccc1 | - | cell count / luminescence | >34 µM
Cc1cn([C@@H]2C[C@@H](N=[N+]=[N-])[C@H](CO)O2)c(=O)[nH]c1=O | - | - | >200 µM
C[C@H]1C(OC(=O)c2ccc([N+](=O)[O-])cc2)O[C@@H]2OC3(C)CCC4[C@H](C)CCC1[C@]42OO3 | - | ATP / luminescence | >23.8 µM
Cc1cn([C@@H]2C=C[C@H](CO)O2)c(=O)[nH]c1=O | - | - | >200 µM
C[C@H]1C(OC(=O)c2ccccc2)O[C@@H]2OC3(C)CCC4[C@H](C)CCC1[C@]42OO3 | - | ATP / luminescence | >26 µM
Nc1ccn([C@H]2CC[C@@H](CO)O2)c(=O)n1 | - | neutral red | 7.7 µM
Cc1cn([C@@H]2CC[C@H](CO)O2)c(=O)[nH]c1=O | - | - | >200 µM
Cc1cn([C@H]2C=C[C@@H](CO)O2)c(=O)[nH]c1=O | - | neutral red | 290 µM
Cc1cn([C@H]2CC[C@@H](CO)O2)c(=O)[nH]c1=O | - | - | >200 µM
CCOc1ccc(Nc2cc(C)nc3ccc(OC)cc23)cc1 | - | cell count / luminescence | >27.4 µM
Cc1cn([C@H]2C[C@H](F)[C@@H](CO)O2)c(=O)[nH]c1=O | - | - | >100 µM
CO[C@H]1O[C@@H]2O[C@@]3(C)CC[C@H]4[C@H](C)CC[C@@H]([C@H]1C)[C@@]24OO3 | - | ATP / luminescence | >26 µM
CCc1cccc(OCCCCN(C)Cc2ccccc2)c1 | - | cell count / luminescence | >30.4 µM
C[C@@H]1CCC2[C@@H](C)[C@@H](OCCN3CCNCC3)O[C@@H]3OC4(C)CCC1[C@@]23OO4 | - | ATP / luminescence | >28.9 µM
CCCCNCCCCCOc1ccc2ccccc2c1 | - | cell count / luminescence | 12.8 µM
CC1C(=O)N(O)c2ncc(Br)cc2C1O | 3 d | MTS | 65.7 µM

2 of the rows above, restated:

smiles | setting | read by | value
C[C@@H]1CCC2[C@@H](C)[C@@H](OCCN3CCNCC3)O[C@@H]3OC4(C)CCC1[C@@]23OO4 | - | ATP / luminescence | >28.9 µM
CCOc1ccc(Nc2cc(C)nc3ccc(OC)cc23)cc1 | - | cell count / luminescence | >27.4 µM